Assay results as given in paper PMC8906008 (Antiviral Research, 2022).

System: SARS-CoV-2 nsp4-5-6 C145A
Assay type: cell-based

For Cc1sc2c(c1C)C(c1ccc(Cl)cc1)=N[C@@H](CC(=O)NCCCCCCCCNC(=O)COc1cccc3c1C(=O)N(C1CCC(=O)NC1=O)C3=O)c1nnc(C)n1-2 (stereo partly shown) [Compound #2, dBET6], the “Secondary screen nsp5-CA RLU (%)” value was 233.3 ± 6.6%.
